## Percent effect of library compounds

Source: ChEMBL document CHEMBL3988442, “University of Dundee, Small-Polar-MMV Screening Library” (2021).

Mtb glucose medium: 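Growth of Mycobacterium tuberculosis over 3 days (7H9 medium with glucose and tyloxapol); the read-out is not stated. Tested at 50 µM. Higher reads as more growth inhibition (inferred: compounds with an IC50 in retests scored well above the rest). About 69,000 compounds were tested under these conditions; 1.1% (about 760) showed 50% or more at least once.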
Mtb cholesterol medium: 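Phenotypic screen: M. tuberculosis growth, cholesterol and DPPC medium, 4 days; the read-out is not stated. Tested at 50 µM. Direction is inferred from retests: higher values go with more growth inhibition. Size under these conditions: about 69,000 compounds, about 370 of them at 50% or above in at least one test.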

The filed quantity is “Percent Effect” (%). How 0% and 100% were set is not recorded. Most values in the screen are low, and negative values occur. The entries come from a sample that favours strong results. Two or more numbers in one place are separate tests of the same structure; such repeats can differ widely. A dash means the value is not listed here; it may have been measured.

SMILES | Mtb glucose medium | Mtb cholesterol medium
Cc1ccc(S(=O)(=O)N2CCOc3ccccc32)cc1C(=O)O | -36.04% | -
CC(C)c1cc(N(C)Cc2cc(C3CC3)on2)n2nccc2n1 | 28.54% | 8.091%
COc1ccc(OC)c(CN2CCc3nc4ccsc4c(=O)n3CC2)c1.Cl | 28.43% | 6.048%
CC(C)c1nc(CSc2nnc(-c3cccs3)n2CC(N)=O)no1 | 55.45% | -
Fc1cnc(N2CCOCC3(CCCN(c4cnccn4)C3)C2)nc1 (stereo unspecified) | 69.89% | -
COc1ccc(C)cc1CCNS(C)(=O)=O | 17.67% | -
CC(O)CCN(C)C(=O)Nc1cc(F)cc(Br)c1 (stereo unspecified) | 10.14% and 21.84% | -12%
COc1cccc(CNCCNS(=O)(=O)Cc2ccccc2)c1 | -1.363% and -13.47% | -3.379%
Cn1ncnc1NCc1ccccc1Cl | 14.21% | -
COC(CNC(=O)c1cc(C)on1)c1ccccc1C (stereo unspecified) | 17.14% | -
CCCc1nc(Nc2cccc(C(N)=O)c2)c2c(n1)c(C)nn2CC | -9.483% | 3.059%
CCCC(=O)NCc1cccc(C(=O)OC)c1 | 28.97% and -2.724% | -
CC(C)c1ncc(C(=O)N(C)c2ccc(Br)cn2)s1 | 7.44% and 32.82% | 0.2385%
Cn1ccnc1CN1CCC2(CC(=O)N(c3cncnc3)C2)C1.O=C(O)C(F)(F)F (stereo unspecified) | 62.97% | -
CC(C)CCn1ccc(NC(=O)N2CCCC2C(C)(C)O)n1 (stereo unspecified) | - | 1.299%
COCC(=O)NCC(Cc1cccc(F)c1)n1cccc1 (stereo unspecified) | 29.84% and 19.37% | -
[H][C@]12CC[C@]([H])(CN(Cc3cc(-c4ccccc4)no3)C1)N(CC1CC1)C2 | 63.69% | 40.2% and 53.76%
Cc1ccc(C(O)CNC(=O)c2cccnc2O)cc1 (stereo unspecified) | 25.32% | -
Cc1cc(=O)n(CC(=O)Nc2ccc(Cl)cc2)nc1C | 6.768% | -
CC(=O)NCCNC(=O)c1cnc2c(c1)nc(-c1ccccc1Cl)n2C | 0.05814% and 6.415% | -
CN(CC1(C)COC1)C(=O)c1cc(-c2ccnn2C)nc2ccccc12 | - | -11.75% and 7.419%
Cc1ccc2c(c1)OCCCC2NCc1nccn1Cc1ccccc1 (stereo unspecified) | 42.78% | -
c1ccc(-c2noc([C@@H]3Cc4nc[nH]c4CN3)n2)cc1 | 30.78% and 11.62% | -
CC(C)(C)OC(=O)NCC(=O)NCc1ccc(Cl)s1 | 15.6% | -
CCn1nc(C)c2nc(C)nc(NCCc3ccccc3)c21 | 46.33% and 6.519% | -
Cc1ncc2c(n1)CCN(CCCc1nc3ccccc3o1)C2 | -12.58% | -1.766%
CC(C)(CNc1ccc(C#N)c(C(F)(F)F)c1)C(N)=O | 50.43% | -
Cc1csc(NC(=O)C(C)Oc2ccc3c(c2)OCO3)n1 (stereo unspecified) | 57.37% | -
COc1ccc(C(C)NS(=O)(=O)c2ccc3c(c2)CCC(=O)N3)cc1F (stereo unspecified) | -0.2548% and -5.426% | -22.28%
O=C(CCC1CCCN(C(=O)CCc2ccc(F)c(F)c2)C1)NC1CC1 (stereo unspecified) | -16.33% | 9.46%
Cc1nccn1-c1cc(CNS(=O)(=O)N2CCCC(C)C2)ccn1 (stereo unspecified) | -35.57% | -8.152%
O=C(Nc1cn[nH]c1)c1ccncc1 | 10.68% | -
Cc1cc(C)nc(NC(=O)C(C)Oc2ccc3c(c2)OCO3)n1 (stereo unspecified) | -4.393% | -3.171%
CCSCCNc1cc(C)nc2c(C)c(C)nn12 | 86.03% | 79.6% and 92.14%
CS(=O)(=O)N1CCC(CSc2ccccc2)C1 (stereo unspecified) | 14.15% | -
COC(=O)c1ccc(C(=O)N2CCCC(Nc3ccc(F)cc3)C2)cc1 (stereo unspecified) | - | 1.276% and 27.83%
CCN(Cc1c(C)nn(C)c1C)C(=O)C1COc2ccccc2C1 (stereo unspecified) | - | -11.94% and -1.992%
COCCC1(CNC(=O)NCC2CCCN(C)C2)CCCC1 (stereo unspecified) | - | -5.07%
NC(=O)c1ccc(CNC2CCCSC2)cc1 (stereo unspecified) | -4.651% | 13.63%
CSc1cccc(CN(C)C(=O)CN2CCN(c3ncccn3)CC2)c1 | 11.02% | -
Cc1cc(CN(C)C2CCCN(Cc3noc(C)n3)C2)no1 (stereo unspecified) | -36.48% | -
COCCNC(=O)c1ccc(C)c(-n2cccc2)c1 | 4.762% and -6.375% | -
CCc1cn[nH]c1C1CCN(c2cc(C)c3ccc(OC)cc3n2)CC1 | 18.96% | -
Cc1csc(N2CCCN(c3cc(C)nc(C)c3C#N)CC2)n1 | 55.15% | -
O=C(Cn1ccc2ccccc21)N1CCC(Oc2ncccc2Br)CC1 | 17.39% and 30.23% | 18.87%
O=C(CCNC(=O)C1=Cc2ccccc2OC1)NCc1ccncc1 | 13.59% and -4.247% | -8.894%
CC(NCc1ccc(OCC(N)=O)cc1)c1ccc(Cl)c(Cl)c1.Cl (stereo unspecified) | 56.47% | 34.66%
CCc1noc(CN2CCOC3(CCCC3)C2)n1 | 14.89% | -
Cc1ccc(N2CCN(C(=O)CCC(F)(F)F)C(C)C2)cc1 (stereo unspecified) | 40.58% and 61.74% | -
CSCc1cc(F)ccc1CNC(=O)N1CCCC1 | 23.44% | -
COc1ccc(-n2nnc(C(N)=O)n2)cc1 | 13.29% | -
CCc1nnsc1C(=O)N1CCCN(Cc2ccc(F)cc2)CC1 | - | 7.749%
Cl.NC(=O)COc1ccc(CNCc2cc(F)ccc2F)cc1 | -56.32% | -
Cc1cc(NCCSc2nccn2C)n2nc(C)c(C)c2n1 | 39.1% | 5.629% and -0.161%
O=C(CCc1nccs1)N1CCN(c2ccccn2)CC1 | - | 23.25%
CSC1=Nc2c(cnn2-c2cccc(Cl)c2)C2=NCCCN12 | 39.95% | 49.26%
Cc1nc(-c2nnc[nH]2)sc1C(=O)N1CCCC1Cn1cccn1 (stereo unspecified) | - | 71.76% and -2.795%
CCCOc1ccc(NC(=O)NCCC(=O)N(C)C)cc1Cl | - | -2.163%
NCC(c1ccc(Cl)cc1)N1CCc2sccc2C1 (stereo unspecified) | 40.58% | 47.68%
CN1CCC(c2cccc(Cc3ccc(C(F)(F)F)cc3)n2)CC1 | 51.26% | -
CCN(CC)c1ccc(C(=O)NCC2(C(N)=O)CCOCC2)cn1 | -36.86% and -2.658% | -13%
CCc1c(C)sc(NC(=O)CN2CCOCC2)c1C(=O)OC | 35.31% | 15.87%
COc1cccc(CNCc2cccnc2-n2cccn2)c1OC | 104% and 2.555% | -
O=C(NCC1(O)COCCN(Cc2cccc(O)c2)C1)c1cscn1 (stereo unspecified) | 67.55% | -
Br.Cc1ccc(OCCCSC2=NCCN2)cc1 | 20.82% | -
CN1CCN(CC(NCc2ccc(F)c(F)c2)c2ccccc2)CC1 (stereo unspecified) | 62.68% | -
CCc1ccc(C(=O)NC2CCc3nc(C)cn3C2)o1 (stereo unspecified) | - | 10.85%

The last 6 entries again:

SMILES,Mtb glucose medium,Mtb cholesterol medium
CCc1c(C)sc(NC(=O)CN2CCOCC2)c1C(=O)OC,35.31%,15.87%
COc1cccc(CNCc2cccnc2-n2cccn2)c1OC,104% and 2.555%,-
O=C(NCC1(O)COCCN(Cc2cccc(O)c2)C1)c1cscn1 (stereo unspecified),67.55%,-
Br.Cc1ccc(OCCCSC2=NCCN2)cc1,20.82%,-
CN1CCN(CC(NCc2ccc(F)c(F)c2)c2ccccc2)CC1 (stereo unspecified),62.68%,-
CCc1ccc(C(=O)NC2CCc3nc(C)cn3C2)o1 (stereo unspecified),-,10.85%